Results published in paper PMC11098500.
Where “and” joins values, the source holds several entries; their conditions need not be identical. Identical values can stand only once.

Target: human ACE2 ectodomain (residues 1-615), Fc-tagged (human) (UniProt Q9BYF1)
Assay: SPR

For “SARS-CoV-2 RBD (prototypic strain, residues 319-529), His-tagged (from UniProt P0DTC2 319-529) (domain or fragment; other documents disagree on this pair)”, the Kd was 0.0369 µM and 0.0265 µM and 0.0317 µM, the koff was 0.0151 s⁻¹ and 0.0123 s⁻¹ and 0.0274 s⁻¹ and the kon was 410000 M⁻¹ s⁻¹ and 463000 M⁻¹ s⁻¹ and 864000 M⁻¹ s⁻¹.
